# Library screen at single concentrations

From ChEMBL document CHEMBL3988442, “University of Dundee, Small-Polar-MMV Screening Library” (2021).

Results are given as percent effect.
The record does not define 0% and 100%; most values in the screen are far below 50% and negative numbers occur (in some assays of this library far below -100).
The entries come from a sample that favours strong results.

Mtb glucose medium: 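Phenotypic screen: M. tuberculosis growth, glucose 7H9 medium, 3 days; the read-out is not stated. Tested at 500 µM. The record gives no direction; compounds that gave an IC50 in retests scored well above the rest, so higher reads as more growth inhibition. Size under these conditions: about 18,000 compounds, about 1,400 of them at 50% or above in at least one test.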
Mtb cholesterol medium: 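Growth of Mycobacterium tuberculosis over 4 days (cholesterol / DPPC medium with tyloxapol); the read-out is not stated. Tested at 500 µM. The record gives no direction; compounds that gave an IC50 in retests scored well above the rest, so higher reads as more growth inhibition. Of about 18,000 compounds tested this way, about 900 (5%) reached 50% or more in at least one test.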

* Cc1nonc1CC(=O)N[C@@H]1COCC[C@H]1O | Mtb glucose medium: 3.95%
* CCn1nccc1[C@@H]1OCC[C@H]1CN | Mtb glucose medium: 16.36%
* Cc1ccc(OCC(C)N)cc1 (stereo not drawn) | Mtb glucose medium: -6.401%; Mtb cholesterol medium: -3.11%
* CNC(=O)Cc1noc(COC2CCCCC2)n1 | Mtb cholesterol medium: 11.97%
* CCC[C@H]1CN(CCCO)C[C@@H]1NC(=O)c1cnn[nH]1 | Mtb cholesterol medium: -1.593%
* Cc1noc(CCCC(=O)Nc2cccnc2)n1 | Mtb cholesterol medium: 9.848%
* CN(C)CCNC(=O)[C@@H](N)Cc1ccccc1 | Mtb glucose medium: 23.15%
* CCCC(N)CNS(=O)(=O)c1ccc(C)cc1F (stereo not drawn) | Mtb glucose medium: 24.7%
* C1CC(N2CCN(CC3CC3)CC2)CCN1 | Mtb glucose medium: -25.69%
* COc1ccnc(N2CCN(C(=O)CSC)CC2)n1 | Mtb cholesterol medium: 5.831%
* COCC(C#N)NC(=O)CCNc1ccccc1 (stereo not drawn) | Mtb glucose medium: 11.2%
* NC[C@@H]1C[C@H]2CC[C@H]1O2 | Mtb cholesterol medium: 11.4%
* COc1cccc(C(O)c2nccn2C)c1 (stereo not drawn) | Mtb cholesterol medium: 23.88%
* Cc1noc(NC(=O)c2ccc(C(F)(F)F)nc2C)n1 | Mtb glucose medium: 91.31%; Mtb cholesterol medium: 100.7%
* CN(C(=O)c1ccoc1Br)c1cc(C#N)ccn1 | Mtb glucose medium: 5.379%; Mtb cholesterol medium: -9.777%
* CCOCCC(=O)N1c2ccccc2OCC1C (stereo not drawn) | Mtb glucose medium: 52.35%
* Cc1ccc(C(=O)N2CCC3(CCCCO3)CC2)cn1 | Mtb glucose medium: 54.3%
* CCC(CC)C(O)CNC(=O)CC1(O)CCCC1 (stereo not drawn) | Mtb glucose medium: -1.977%
* COCCN(Cc1ccncc1)C(=O)CC1CCNC1 (stereo not drawn) | Mtb glucose medium: -7.094%
* CCc1ncc2c(n1)CNCC2 | Mtb cholesterol medium: -41.55%
* CS(=O)(=O)N1CCSc2ccc(Cl)cc21 | Mtb cholesterol medium: -18.24%
* CN(CCCn1cccn1)C(=O)CN1CCCC(O)C1 (stereo not drawn) | Mtb cholesterol medium: 9.417%
* O=S1(=O)CC(CO)c2ccccc21 (stereo not drawn) | Mtb glucose medium: 7.987%; Mtb cholesterol medium: 8.471%
* CNC(=O)NCCOc1ccc2c(c1)OCO2 | Mtb glucose medium: -4.564%; Mtb cholesterol medium: -3.768%
* O=C(NC1COC1)c1ccc(Br)cn1 | Mtb cholesterol medium: 18.09%
* CCC[C@H]1CN(C(=O)CCCc2cn[nH]c2)C[C@@H]1N | Mtb glucose medium: 3.053%
* Cn1cc(-c2csc(N)n2)cn1 | Mtb glucose medium: 10%
* CCC[C@H]1CN(S(=O)(=O)Cc2ccc(F)cc2)C[C@@H]1N | Mtb glucose medium: 51.29%
* O=C(NCc1cccnc1)C1COc2ccccc2O1 (stereo not drawn) | Mtb glucose medium: 54.77%
* c1ccc2[nH]c(N3CCCNCC3)nc2c1 | Mtb glucose medium: 0.15%
* COC(=O)c1cccc(NC(=O)NC[C@@H]2CCCN2)c1 | Mtb cholesterol medium: -1.86%
* CN(Cc1cc(C2CC2)[nH]n1)C(=O)c1c[nH]c(=O)[nH]1 | Mtb glucose medium: 12.05%; Mtb cholesterol medium: 0.1549%
* CS(=O)(=O)NCCCNC(=O)c1cn2ccccc2n1 | Mtb cholesterol medium: -2.967%

The last 3 entries again:

{"compound": "COC(=O)c1cccc(NC(=O)NC[C@@H]2CCCN2)c1", "Mtb cholesterol medium": -1.86}
{"compound": "CN(Cc1cc(C2CC2)[nH]n1)C(=O)c1c[nH]c(=O)[nH]1", "Mtb glucose medium": 12.05, "Mtb cholesterol medium": 0.1549}
{"compound": "CS(=O)(=O)NCCCNC(=O)c1cn2ccccc2n1", "Mtb cholesterol medium": -2.967}